The values that follow come from PubChem BioAssay AID651958 (The Scripps Research Institute Molecular Screening Center, 2012).

SMILES strings stand for the structures. The entries are a selection whose mix differs from that of the whole data set. Some structures show a salt or complex split into parts, the way the source records it. The source made the active and inactive calls. Cut-off read from the data, not from the text of the source: active = inhibition above about 30%; inactive = the rest.

In the experiment the test system is Crimean-Congo hemorrhagic fever virus L polyprotein viral ovarian tumor (vOTU) protease domain. Description: CCHFV vOTU protease inhibitors, primary screen, biochemical, Pep-AMC substrate, fluorescence (AID 651958). Note: 0% = vehicle wells with enzyme and 100% = no enzyme wells. Conditions: at 11.5 µM, active compounds read high.
Regarding `O=[N+]([O-])c1cc([N+](=O)[O-])c(-n2nnc3ccccc32)c([N+](=O)[O-])c1`, the inhibition (as a rule, the change of the read-out against control, counted positive when it falls) was inactive: 3.18%.
With `CN(Cc1cccnc1)C(=O)COc1ccc(Cl)c(Cl)c1.O=[N+]([O-])c1cc([N+](=O)[O-])c(O)c([N+](=O)[O-])c1` the figure was inactive: 19.6%; with `O=[N+]([O-])c1cc([N+](=O)[O-])c(-c2cnn(-c3ccccc3)c2)c([N+](=O)[O-])c1`, inactive: 11.1%.
Turning to `Cc1nc2ccc3ccccc3c2s1.O=[N+]([O-])c1cc([N+](=O)[O-])c(O)c([N+](=O)[O-])c1`, the inhibition is active: 37.5%.
The result for `CCOC(=O)C(CC)C1=NC(C)(C)Cc2ccccc21.O=[N+]([O-])c1cc([N+](=O)[O-])c(O)c([N+](=O)[O-])c1` (centres undefined) reads inactive: -0.22%.
The result for `O=[N+]([O-])c1cc([N+](=O)[O-])c(Nc2nnnn2CCO)c([N+](=O)[O-])c1` reads inactive: 9.46%.
Consider `CN1CCCCC1COC(=O)C1(O)c2ccccc2CCc2ccccc21` (centres undefined), for which the inhibition is inactive: 6.3%.
As to `COc1ccccc1OP(C)(=O)Nc1c(C)cccc1C` (centres undefined), the inhibition is inactive: -21.4%.
The result for `CP(=O)(Nc1ccc(SC(F)(F)F)cc1)Oc1ccccc1` (centres undefined) reads inactive: 2.09%; that for `CCCOc1ccc(NP(C)(=O)Oc2ccc(Cl)cc2)cc1` (centres undefined), inactive: 13.5%; that for `COc1ccc(-c2ccccn2)cc1.O=[N+]([O-])c1cc([N+](=O)[O-])c(O)c([N+](=O)[O-])c1`, inactive: 10.8%.
With `O=C(O)c1cccc(Nc2c([N+](=O)[O-])cc([N+](=O)[O-])cc2[N+](=O)[O-])c1` the figure was inactive: 27.2%.
With `CC1=NCCc2c1[nH]c1ccccc21.O=[N+]([O-])c1cc([N+](=O)[O-])c(O)c([N+](=O)[O-])c1` the figure was inactive: 0.27%.
For `COc1ccccc1OP(C)(=O)Nc1cccc(Br)c1` (centres undefined), the inhibition is inactive: 13%.
With `Cc1cc(C)cc(OP(C)(=O)Nc2ccc(C)cc2C)c1` (centres undefined) the figure was inactive: 22.3%; with `CCOC(=O)c1ccc(NP(C)(=O)Oc2cc(C)cc(C)c2)cc1` (centres undefined), inactive: 2.64%; with `CP(=O)(Nc1cccc(Br)c1)Oc1ccccc1` (centres undefined), inactive: -3.97%.
With `Cc1cc(C)cc(OP(C)(=O)Nc2ccccn2)c1` (centres undefined) the figure was inactive: -4.8%; with `Cc1ccc(C)c(NP(C)(=O)Oc2ccccc2)c1` (centres undefined), inactive: 1.1%.
The result for `CCN(CC)CCCOC(=O)C(O)(c1ccccc1)c1ccccc1` reads inactive: 6.2%.
Consider `COc1ccccc1-c1ccccn1.O=[N+]([O-])c1cc([N+](=O)[O-])c(O)c([N+](=O)[O-])c1`, for which the inhibition is inactive: 6.79%.
With `O=[N+]([O-])c1cc([N+](=O)[O-])c(Nc2cccnc2)c([N+](=O)[O-])c1` the figure was inactive: 9.24%.
With `Cc1cccc(C)c1OP(C)(N)=O` (centres undefined) the figure was inactive: 20.5%; with `CC(C)(C)c1ccc(OP(C)(=O)Nc2ccc(SC(F)(F)F)cc2)cc1` (centres undefined), active: 38.8%.
With `O=[N+]([O-])c1ccc2c(c1)C=Nc1ccccc1O2` the figure was inactive: 8.14%; with `CCOC(=O)c1ccc(NP(C)(=O)Oc2ccccc2)cc1` (centres undefined), inactive: 1.23%.
In the case of `Cc1ccc(NP(C)(=O)Oc2ccccc2)c(C)c1` (centres undefined), the inhibition was inactive: 1.34%.
For the compound `COc1ccccc1OP(C)(=O)Nc1ccc(C)cc1` (centres undefined), the inhibition is inactive: 17.2%.
The result for `COc1ccc(OP(C)(=O)Nc2cccc(F)c2)cc1` (centres undefined) reads inactive: -7.26%; that for `COc1ccccc1OP(C)(=O)Nc1cc(Cl)ccc1C` (centres undefined), inactive: -8.26%; that for `Cc1cc(C)cc(OP(C)(N)=O)c1` (centres undefined), inactive: 5.66%.
With `CP(=S)(Nn1cnnc1)Oc1ccccc1` (centres undefined) the figure was inactive: -3.31%; with `COc1ccccc1OP(C)(=O)Nc1ccccc1` (centres undefined), inactive: -6.43%; with `CP(=O)(Nc1ccccc1Br)Oc1ccccc1` (centres undefined), inactive: 18.2%.
With `CP(=O)(Oc1ccccc1)OC(c1ccccc1)C(F)(F)F` (centres undefined) the figure was inactive: -12.2%.
With `CP(=O)(Nc1ccc(SC(F)(F)F)cc1)Oc1ccc(Cl)cc1` (centres undefined), the inhibition was inactive: 6.92%.
As to `Cc1cccc(C)c1OP(C)(=O)Nc1ccc(SC(F)(F)F)cc1` (centres undefined), the inhibition was inactive: -1.83%.
The result for `Cc1cc(C)cc(OP(C)(=O)Nc2ccc(SC(F)(F)F)cc2)c1` (centres undefined) reads inactive: -11.6%; that for `CCc1ccc(OP(C)(=O)N2CCN(c3ccc([N+](=O)[O-])cc3)CC2)cc1` (centres undefined), inactive: 0.8%.
With `CP(=O)(NC(=O)Nc1ccccc1)Oc1ccccc1` (centres undefined) the figure was inactive: -1.43%; with `CCOP(C)(=S)SCC(=O)NC(C)C(=O)O` (centres undefined), inactive: 4.03%.
The result for `O=[N+]([O-])c1cc([N+](=O)[O-])c(O)c([N+](=O)[O-])c1.c1ccc(Oc2ccncc2)cc1` reads inactive: 10.4%; that for `CCOC(=O)c1ccc(NP(C)(=O)Oc2ccc(OC)cc2)cc1` (centres undefined), inactive: 7.48%.
`CP(=O)(Nc1ccccn1)Oc1ccc(Cl)cc1` (centres undefined): the inhibition is inactive: -8.52%.
The result for `COc1ccc(OP(C)(=O)Nc2ccc(Br)cc2)cc1` (centres undefined) reads inactive: 2.38%.
The result for `CCN(CC)CC(O)COC(=O)C(O)(c1ccccc1)C1CCCCC1` (centres undefined) reads inactive: -6.28%.
Regarding `CCc1ccc(OP(C)(=O)Nc2cccnc2)cc1` (centres undefined), the inhibition was inactive: -10.6%.
Consider `CP(=O)(Oc1ccccc1)N1CCOC1=O` (centres undefined), for which the inhibition was inactive: 15%.
With `O=C(OCCCN1CCCC1)C(O)(c1ccccc1)C1CCCCC1` (centres undefined) the figure was inactive: 1.67%; with `COc1ccccc1OP(C)(=O)Nc1c(C)n(C)n(-c2ccccc2)c1=O` (centres undefined), inactive: -1.07%; with `CP(=O)(Nc1ccc(Cl)cc1)Oc1ccc(F)cc1` (centres undefined), inactive: 18%.
With `CC(C)(C)c1ccc(OP(C)(=O)O)cc1` the figure was inactive: 18.3%; with `COc1ccccc1OP(C)(=O)Nc1ccccc1Br` (centres undefined), inactive: -14.3%.
Turning to `CN(C)C(=O)c1c([N+](=O)[O-])cc([N+](=O)[O-])cc1[N+](=O)[O-]`, the inhibition is inactive: 14%.
With `Nc1ccc2c(ccc3cccnc32)n1.O=[N+]([O-])c1cc([N+](=O)[O-])c(O)c([N+](=O)[O-])c1` the figure was inactive: -11.3%.
Consider `CP(=O)(OC12CC3CC(CC(C3)C1)C2)OC12CC3CC(CC(C3)C1)C2`, for which the inhibition is inactive: -3.44%.
As for `CCOC(=O)c1ccc(NP(C)(=O)Oc2ccc(Cl)cc2)cc1` (centres undefined), the inhibition was inactive: -8.61%.
With `Cc1cc(C)cc(OP(C)(=O)Nc2cccc(C(F)(F)F)c2)c1` (centres undefined) the figure was inactive: 22.4%.
In the case of `O=C1C(O)=C([N+](=O)[O-])C(=O)C(O)=C1[N+](=O)[O-]`, the inhibition is inactive: -2.36%.
`COc1ccc(OP(C)(=O)Nc2ccccc2Br)cc1` (centres undefined): the inhibition is inactive: -16.6%.
With `COc1ccccc1OP(C)(=O)Nc1ccc(C)c(C)c1` (centres undefined) the figure was inactive: -9.3%.
The result for `CP(=O)(OCCOc1ccccc1)OCCOc1ccccc1` reads inactive: 12%; that for `CP(=O)(Nc1ccc(Cl)cc1Cl)Oc1ccccc1` (centres undefined), inactive: 9.23%.
The result for `CCCCCCCCCCCCCCCC1C[N+](C)(C)CCOP(C)(=O)O1` (centres undefined) reads inactive: 14.2%; that for `COc1ccccc1OP(C)(=O)Nc1ccc(Br)cc1` (centres undefined), inactive: 7.07%.
`CN(C)CCOC(=O)C(O)(c1ccccc1)C1CCCC1` (centres undefined): the inhibition is inactive: -5.12%.
The result for `COc1ccc(OP(C)(=O)Nc2ccccn2)cc1` (centres undefined) reads inactive: -0.86%; that for `O=[N+]([O-])c1cc([N+](=O)[O-])c(Nc2ccccn2)c([N+](=O)[O-])c1`, active: 37.6%.
Take `Cc1c(NP(C)(=O)Oc2ccc(C(C)C)cc2)c(=O)n(-c2ccccc2)n1C` (centres undefined): the inhibition is inactive: -3.88%.
The result for `CCc1ccc(OP(C)(=O)O)cc1` reads inactive: -2.6%.
On to `COc1ccccc1OP(C)(=O)Nc1ccc(C)cc1C` (centres undefined), for which the inhibition is inactive: -5.98%.
Take `CP(=O)(Nc1ccccn1)Oc1ccccc1` (centres undefined): the inhibition is inactive: 8.57%.
Take `O=[N+]([O-])c1cc([N+](=O)[O-])c(Nc2ccc(Cl)cc2)c([N+](=O)[O-])c1`: the inhibition is inactive: 12%.
The result for `CC(C)c1ccc(OP(C)(=O)Nc2ccc(SC(F)(F)F)cc2)cc1` (centres undefined) reads inactive: 16.7%; that for `CP(=O)(Nc1ccccc1F)Oc1ccccc1` (centres undefined), inactive: 9.08%.
With `O=C(OCCN1CCN(CCOCc2ccccc2)CC1)C(O)(c1ccccc1)c1ccccc1` the figure was inactive: -12.9%; with `O=C(OC1CN2CCC1CC2)c1ccc([N+](=O)[O-])cc1` (centres undefined), inactive: 5.86%; with `COc1ccc2c(c1O)-c1c(O)c(OC)cc3c1[C@H](C2)[N+](C)(C)CC3.O=[N+]([O-])c1cc([N+](=O)[O-])c([O-])c([N+](=O)[O-])c1[O-]`, inactive: -17.9%.
The result for `CCN(CC)CCCNc1ccccc1[N+](=O)[O-].O=[N+]([O-])c1cc([N+](=O)[O-])c(O)c([N+](=O)[O-])c1` reads inactive: 10.9%.
Take `COc1ccc(OP(C)(=O)Nc2ccc(SC(F)(F)F)cc2)cc1` (centres undefined): the inhibition was inactive: 4.96%.
The result for `CCOC(=O)c1ccc(NP(C)(=O)Oc2ccc(F)cc2)cc1` (centres undefined) reads inactive: -9.07%; that for `CCN(CC)CCCOC(=O)C(O)(c1ccccc1)C1CCCCC1` (centres undefined), inactive: 10.2%.
With `Cc1c([N+](=O)[O-])cc([N+](=O)[O-])c(Br)c1[N+](=O)[O-]` the figure was inactive: 9.94%.
With `O=[N+]([O-])c1cc([N+](=O)[O-])c(OC2CCCCC2O)c([N+](=O)[O-])c1` (centres undefined) the figure was inactive: 3.91%; with `CCCCCOc1ccc(NP(C)(=O)Oc2ccc(Cl)cc2Cl)cc1` (centres undefined), inactive: 13.8%; with `CP(=O)(Nc1ccccc1)Oc1ccc(F)cc1` (centres undefined), inactive: 3.17%.
Turning to `COc1ccc(OP(C)(=O)Nc2cccc(Br)c2)cc1` (centres undefined), the inhibition was inactive: 22%.
`COc1ccc(NP(C)(=O)Oc2ccccc2OC)cc1` (centres undefined): the inhibition was inactive: -5.7%.
As to `CN(C)CCOC(=O)C(O)(c1ccccc1)C1CCCCC1` (centres undefined), the inhibition was inactive: -0.94%.
`O=[N+]([O-])c1cc([N+](=O)[O-])c(NCC2CCS(=O)(=O)C2)c([N+](=O)[O-])c1` (centres undefined): the inhibition is inactive: 14.7%.
The result for `Cc1cc(-c2cccc3ccccc23)c(C)cn1.O=[N+]([O-])c1cc([N+](=O)[O-])c(O)c([N+](=O)[O-])c1` reads inactive: 14.2%; that for `O=[N+]([O-])c1ccc(OP2(=O)COCCO2)cc1` (centres undefined), inactive: 7.67%; that for `Cc1c(C(c2ccc3c(c2)OCO3)c2c(C)n(C)n(-c3ccccc3)c2=O)c(=O)n(-c2ccccc2)n1C.O=[N+]([O-])c1cc([N+](=O)[O-])c(O)c([N+](=O)[O-])c1`, inactive: 1.59%.
The result for `CP(=O)(Nc1ccc(SC(F)(F)F)cc1)Oc1ccc(F)cc1` (centres undefined) reads inactive: 11.3%.
With `CCOP(=O)(CC)OCC` the figure was inactive: 1.62%; with `CCOP(C)(=S)SCC(=O)NC(C)(CC)C(=O)O` (centres undefined), inactive: -12.2%; with `CP(=O)(Nc1ccc2c(c1)OCCO2)Oc1ccccc1` (centres undefined), inactive: 1.25%.
As to `O=[N+]([O-])c1cc([N+](=O)[O-])c(C(F)(F)F)c([N+](=O)[O-])c1O`, the inhibition was inactive: 21.1%.
Regarding `Cc1ccccc1NP(C)(=O)Nc1ccccc1C`, the inhibition was inactive: 3.51%.
